# Laboratory results from the supplement of paper PMC12637763.
# The other results are listed elsewhere or left out. Env chains of viruses from a treatment-interruption trial, translated from the printed DNA. IC50 / IC80 of two broadly neutralizing antibodies; lower = more sensitive virus; >50 µg/ml means not reached and <0.001 µg/ml is below the lowest dose. No active / inactive call.
# Columns and labels:
# antibody 10-1074 [1] = assay: neutralization IC50; higher = virus less sensitive to the antibody
# Method: (§1)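 Pseudovirus bearing the Env chain mixed with antibody, from 50 µg/ml in fivefold dilutions, on TZM-bl reporter cells, in duplicate.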
# antibody 3BNC117 [2] = assay: as above
# Method: as §1
# antibody 10-1074 [3] = assay: neutralization IC80; higher = virus less sensitive to the antibody
# Method: as §1
# antibody 3BNC117 [4] = assay: as above
# Method: as §1
Binder,neutralization IC50 (antibody 10-1074 [1]),neutralization IC50 (antibody 3BNC117 [2]),neutralization IC80 (antibody 10-1074 [3]),neutralization IC80 (antibody 3BNC117 [4])
"HIV-1 Env, rebound clone, antibody arm (protein) MKVRGMKRNYQHLWGWGTMLLFWMIIMCKAAGNLWVTVYYGVPVWRDAETTLFCASDAKAYDKEVHNVWATHACVPTDPNPQEVRLENVTENFNMWENNMVEQMQTDIISLWDQSLKPCVKLTPLCVTLECTEPKLNSSTSNNSLSSTSNNSQYEEMKNCSFNMTTELRDKQKKVYSLFYKLDIVETDNNSSRYRLINCNTSTLTQACPKVTFEPIPIYYCAPAGFAILKCNDPQFNGTGPCTNVSTVQCTHGIKPVVSTQLLLNGSLAKEQVMIRSKNITDNSKTIIVQLKKPVNITCIRPGNNTRTSIRIGPGQAFYATGEITGDIRKAHCNVSRAEWNRTLQEISTQLQGYFNNKTIIFKNSSGGDLEVTTHSFNCGGEFFYCNTTKLFNSTWYGNETVINGTEASENITLQCRIKQIINMWQRVGQAMYAPPIRGEIRCESNITGLLLTRDGGGGNSSNNETFRPTGGDMRDNWRSELYKYKVVQVEPIGIAPTPAKRRVVEREKRAVGLGAAFLGFLGAAGSTMGAASLTLTVQARQLLSGIVQQQSNLLRAIEAQQHLLKLTVWGIKQLQARVLAVERYLRDQQLLGIWGCSGKLICTTAVPWNSSWSNKSYKDIWDNMTWMQWDKEVLNYTSIIYSLLEESQNQQEKNEQDLLALDKWASLWSWFDISKWLWYIKIFIMIVGGLIGLRIVFTVLSIINRVRQGYSPLSLQTLTPHPEEPDRPGRINEEGGEQDKGRSIRLVNGFLALAWDDLRSLCLFSYHRLRDFISIAARTVELLGRSSLKGLRLGWEGLKYLGNLLGYWSRELKNSAINLIDTIAIAVAGWTDRVIEIVQGSCRAIRNIPRRIRQGAEKALQ",0.281 µg/mL,0.316 µg/mL,3.01 µg/mL,0.728 µg/mL
"HIV-1 Env, rebound clone, antibody arm (protein) MKVRGMKRNYQHLWGWGTMLLFWMIIMCKAAGNLWVTVYYGVPVWRDAETTLFCASDAKAYDKEVHNVWATHACVPTDPNPQEVRLENVTENFNMWENNMVEQMQTDIISLWDQSLKPCVKLTPLCVTLECTEPKLNSSTSNNSLSSTSNNSQYEEMKNCSFNMTTELRDKQEKVYSLFYKLDIVETDNNSSRYRLINCNTSTLTQACPKVTFEPIPIYYCAPAGFAILKCNDPQFNGTGPCTNVSTVQCTHGIKPVVSTQLLLNGSLAKEQVMIRSKNITDNSKTIIVQLKKPVNITCIRPGNNTRTSIRIGPGQAFYATGEITGDIRKAHCNVSRAEWNRTLQEISTQLQGYFNNKTIIFKNSSGGDLEVTTHSFNCGGEFFYCNTTKLFNSTWYGNETVINGTEASENITLQCRIKQIINMWQRVGQAMYAPPIRGEIRCESNITGLLLTRDGGGGNSSNNETFRPTGGDMRDNWRSELYKYKVVQVEPIGIAPTPAKRRVVEREKRAVGLGAAFLGFLGAAGSTMGAASLTLTVQARQLLSGIVQQQSNLLRAIEAQQHLLKLTVWGIKQLQARVLAVERYLRDQQLLGIWGCSGKLICTTAVPWNSSWSNKSYKDIWDNMTWMQWDKEVLNYTSIIYSLLEESQNQQEKNEQDLLALDKWASLWSWFDISKWLWYIKIFIMIVGGLIGLRIVFTVLSIINRVRQGYSPLSLQTLTPHPEEPDRPGRINEEGGEQDKGRSIRLVNGFLALAWDDLRSLCLFSYHRLRDFISIAARTVELLGRSSLKGLRLGWEGLKYLGNLLGYWSRELKNSAINLIDTIAIAVAGWTDRVIEIVQGSCRAIRNIPRRIRQGAEKALQ",0.068 µg/mL,0.034 µg/mL,0.587 µg/mL,0.101 µg/mL
"HIV-1 Env, rebound clone, antibody arm (protein) MRAKGIRKNCQDLLKGGILLLGILMICSAAGNLWVTVYYGVPVWKDATTTLFCASDAKGYSKEAHNVWATHACVPTDPDPREIVMGNVTENFNMWKNDMVDQMHEDIISLWDQSLKPCVKLTPLCVTLNCTNLNITNLNNTNSNTSDTNNNTSSENGSEEMKNCSFNVTTIKGKYQKEYAVLYKLDLVPIDNNDNTSYMLINCNTSVITQACPKISFEPIPIHYCAPAGFAILKCNNKTFNGTGPCTNVSSVQCTHGIRPVVSTQLLLNGSLAEEEVVIRSENFTDNAKTIIVQLKDPIQINCTRPNNNTRKSIHIGPGRAFYATGQIIGNIRQAYCNISKEQWNEALNQTVRKLREQFGNKTMIFNQSSGGDPEIVMHTFNCGGEFFYCNTTQLFNSTWYDTTNSTDSNNNTIKLPCRIKQVINRWQEVGKAMYAPPISGPIRCSSNITGLLLVRDGGNNNSSNSSETFRPGGGNMKDNWRSELYKYKVVKIEPLGVAPTKAKRRVVQRERRAVTLGAMFLGFLGTAGSTMGAASLTLTVQARQLLSGIVQQQSNLLKAIEVHQHMLQLTVWGIKQLQARVLAVERYLKDQQLLGIWGCSGKLICTTTVPWNASWSKKNLSEIWDNMTWIEWEREIQNYTEEIYSLIEKSQNQQAKNEQELLELDKWANLWNWFDITNWLWYIKIFIMIVGGLIGLRIVFTVLSIVNRVRQGYSPLSFQTRLPTQRGPDRPGGTEEEGGERDRDTSRPLVDGFLAIIWVDLRSLFLFSYHRLRDLLLIVTRIVETLGRRGWELLKYWWNLLQYWSQELKNSAISLLNATAIAVAEGTDRVIELIQRAGRAIIHIPRRIRQGLESALL",> 50 µg/mL,0.584 µg/mL,> 50 µg/mL,1.55 µg/mL
"HIV-1 Env, rebound clone, antibody arm (protein) MRAKGIRKNCQDLLKGGILLLGILMICSAAGNLWVTVYYGVPVWKDATTTLFCASDAKGYSKEAHNVWATHACVPTDPDPREIVMGNVTENFNMWKNDMVDQMHEDIISLWDQSLKPCVKLTPLCVTLNCTNLNITNLNNTNSNTSDTNNNTSSENGSEEMKNCSFNVTTIKGKYQKEYAVLYKLDLAPIDNNDNTSYMLINCNTSVITQACPKISFEPIPIHYCAPAGFAILKCNNKTFNGTGPCTNVSSVQCTHGIRPVVSTQLLLNGSLAEEEVVIRSENFTDNAKTIIVQLKDPIQINCTRPNNNTRKSIHIGPGRAFYATGQIIGNIRQAYCNISKEQWNEALNQTVRKLREQFGNKTMIFNQSSGGDPEIVMHTFNCGGEFFYCNTTQLFNSTWYDTTNSTDSNNNTIKLPCRIKQVINRWQEVGKAMYAPPISGPIRCSSNITGLLLVRDGGNNNSSNSSETFRPGGGNMKDNWRSELYKYKVVKIEPLGVAPTKAKRRVVQRERRAVTLGAMFLGFLGTAGSTMGAASLTLTVQARQLLSGIVQQQSNLLRAIEVHQHMLQLTVWGIKQLQARVLAVERYLKDQQLLGIWGCSGKLICTTTVPWNASWSKKNLSEIWDNMTWIEWEREIQNYTEEIYSLIEKSQNQQAKNEQELLELDKWANLWNWFDITNWLWYIKIFIMIVGGLIGLRIVFTVLSIVNRVRQGYSPLSFQTRLPTQRGPDRPGGTEEEGGERDRDTSRPLVDGFLAIIWVDLRSLFLFSYHRLRDLLLIVTRIVETLGRRGWELLKYWWNLLQYWSQELKNSAISLLNATAIAVAEGTDRVIELIQRAGRAIIHIPRRIRQGLESALL",> 50 µg/mL,0.099 µg/mL,> 50 µg/mL,0.338 µg/mL
"HIV-1 Env, rebound clone, antibody arm (protein) MRAKGIRKNCQDLLKGGILLLGILMICSAAGNLWVTVYYGVPVWKDATTTLFCASDAKGYSKEAHNVWATHACVPTDPDPREIVMGNVTENFNMWKNDMVDQMHEDIISLWDQSLKPCVKLTPLCVTLNCTNLNITNLNNTNSNTSDTNNNTSSENGSEEMKNCSFNVTTIKGKYQKEYAVLYKLDLVPIDNNDNTSYMLINCNTSVITQACPKISFEPIPIHYCAPAGFAILKCNNKTFNGTGPCTNVSSVQCTHGIRPVVSTQLLLNGSLAEEEVVIRSENFTDNAKTIIVQLKDPIQINCTRPNNNTRKSIHIGPGRAFYATGQIIGNIRQAYCNISKEQWNEALNQTVRKLREQFGNKTMIFNQSSGGDPEIVMHTFNCGGEFFYCNTTQLFNSTWYDTTNSTDSNNNTIKLPCRIKQVINRWQEVGKAVYAPPISGPIRCSSNITGLLLVRDGGNNNSSNSSETFRPGGGNMKDNWRSELYKYKVVKIEPLGVAPTKAKRRVVQRERRAVTLGAMFLGFLGTAGSTMGAASLTLTVQARQLLSGIVQQQSNLLRAIEVHQHMLQLTVWGIKQLQARVLAVERYLKDQQLLGIWGCSGKLICTTTVPWNASWSKKNLSEIWDNMTWIEWEREIQNYTEEIYSLIEKSQNQQAKNEQELLELDKWANLWNWFDITNWLWYIKIFIMIVGGLIGLRIVFTVLSIVNRVRQGYSPLSFQTRLPTQRGPDRPGGTEEEGGERDRDTSRPLVDGFLAIIWVDLRSLFLFSYHRLRDLLLIVTRIVETLGRRGWELLKYWWNLLQYWSQELKNSAISLLNATAIAVAEGTDRVIELIQRAGRAIIHIPRRIRQGLESALL",> 50 µg/mL,0.138 µg/mL,> 50 µg/mL,0.458 µg/mL
"HIV-1 Env, rebound clone, antibody arm (protein) MRAKGIRKNCQDLLKGGILLLGILMICSAAGNLWVTVYYGVPVWKDATTTLFCASDAKGYSKEAHNVWATHACVPTDPDPREIVMGNVTENFNMWKNDMVDQMHEDIISLWDQSLKPCVKLTPLCVTLNCTNLNITNLNNTNSNTSDTNNNTSSENGSEEMKNCSFNVTTIKGKYQKEYAVLYKLDLVPIDNNDNTSYMLINCNTSVITQACPKISFEPIPIHYCAPAGFAILKCNNKTFNGTGPCTNVSSVQCTHGIRPVVSTQLLLNGSLAEEEVVIRSENFTDNAKTIIVQLKDPIQINCTRPNNNTRKSIHIGPGRAFYATGQIIGNIRQAYCNISKEQWNEALNQTVRKLREQFGNKTMIFNQSSGGDPEIVMHTFNCGGEFFYCNTTQLFNSTWYDTTNSTESNNNTIKLPCRIKQVINRWQEVGKAMYAPPISGPIRCSSNITGLLLVRDGGNNNSSNSSETFRPGGGNMKDNWRSELYKYKVVKIEPLGVAPTKAKRRVVQRERRAVTLGAMFLGFLGTAGSTMGAASLTLTVQARQLLSGIVQQQSNLLRAIEVHQHMLQLTVWGIKQLQARVLAVERYLKDQQLLGIWGCSGKLICTTTVPWNASWSKKNLSEIWDNMTWIEWEREIQNYTEEIYSLIEKSQNQQAKNEQELLELDKWANLWNWFDITNWLWYIKIFIMIVGGLIGLRIVFTVLSIVNRVRQGYSPLSFQTRLPTQRGPDRPGGTEEEGGERDRDTSRPLVDGFLAIIWVDLRSLFLFSYHRLRDLLLIVTRIVETLGRRGWELLKYWWNLLQYWSQELKNSAISLLNATAIAVAEGTDRVIELIQRAGRAIIHIPRRIRQGLESALL",> 50 µg/mL,0.433 µg/mL,> 50 µg/mL,1.46 µg/mL
